Compound potency records, mixed from different reports. Data source: NIAID ChemDB in PubChem.

Shared fields: cytotoxicity tests; cells: C8166; measure: CC50

CCn: concentration that lowers growth or viability of the cells by n%. Lines come from different laboratories, so protocols vary. An empty or dashed field is not shown.

structure	method	result
Cc1cn([C@H]2C=C[C@@H](COC(=O)CC3(C)C[C@](C)(O)CO3)O2)c(=O)[nH]c1=O	-	>500 µM
Cc1ccc2cc3n(c2c1)-c1ccccc1NC3c1ccc([N+](=O)[O-])cc1	MTT	98.29 µg/mL
CC[C@@H](C)[C@H](NC(=O)[C@@H]1CCCN1[P@](=O)(OC)[C@@H](Cc1ccccc1)NC(=O)[C@H](CC(N)=O)NC(=O)OC(C)(C)C)C(=O)NCC(C)C	-	100 µM
CCOP(=O)(N[C@@H](C)C(=O)OC)OC[C@H]1O[C@@H](n2cc(C)c(=O)[nH]c2=O)C[C@@H]1N=[N+]=[N-]	-	>100 µM
CC[C@H](C)[C@H](NC(=O)[C@@H](Cc1ccccc1)NP(=O)(OC)C(CC1CCCCC1)NC(=O)OCc1ccccc1)C(=O)NCC(C)C	-	2 µM
CCOP(=O)(N[C@@H](CC(C)C)C(=O)OC)OC[C@H]1O[C@@H](n2cc(C)c(=O)[nH]c2=O)C[C@@H]1N=[N+]=[N-]	-	>100 µM
CCOP(=O)(N[C@@H](CC(C)C)C(=O)OC)OC[C@H]1O[C@@H](n2cc(C)c(=O)[nH]c2=O)C[C@@H]1N=[N+]=[N-]	-	>100 µM
CC1(C)CC[C@]2(C(=O)O)CC[C@]3(C)C(=CCC4[C@@]5(C)CCC(=O)C(C)(C)C5[C@H](O)C[C@]43C)C2C1	MTT	155 µM
CC(=O)O[C@@H]1[C@@H](O)[C@H](COC(=O)/C=C/c2ccc(O)cc2)OC(Oc2ccc(C(=O)/C=C/c3ccc(O)c(O)c3)c(O)c2O)[C@H]1O	-	100 µM
O=[N+]([O-])c1ccc(OCc2ccccc2)cc1	MTT	183 µg/mL
CC1(C)C=C2C3CCC4[C@@]5(C)CCC(=O)C(C)(C)C5[C@H](O)C[C@@]4(C)[C@]3(C)CC[C@@]2(C(=O)O)CC1	MTT	62.09 µM
CC[C@H](C)[C@H](NC(=O)[C@@H](Cc1ccccc1)NP(=O)(OC)C(Cc1ccccc1)NC(=O)C(CC(N)=O)NC(=O)OC(C)(C)C)C(=O)NCC(C)C	-	100 µM
O=[N+]([O-])c1ccc(COc2ccccc2)cc1	MTT	109.2 µg/mL
Cc1cccc2c1cc1n2-c2ccccc2NC1(C)c1ccccc1	MTT	37.96 µg/mL
COc1cc2c(c(O)c1OC)-c1c(cc(OC)c(OC)c1O)C[C@H](C)[C@H](C)C2	MTT	123 µM
Cc1c2n(c3ccccc13)-c1ccccc1NC2c1ccco1	MTT	182 µg/mL
COC(=O)[C@H](Cc1ccccc1)NP(=O)(N[C@@H](Cc1ccccc1)C(=O)OC)OC[C@H]1O[C@@H](n2cc(C)c(=O)[nH]c2=O)C[C@@H]1N=[N+]=[N-]	-	>100 µM
CSCO[C@]1(C)COC(C)(CC(=O)OC[C@@H]2C=C[C@H](n3cnc4c(N)ncnc43)O2)C1	-	400 µM
COC(=O)[C@H](C)NP(=O)(OC[C@H]1O[C@@H](n2cc(C)c(=O)[nH]c2=O)C[C@@H]1N=[N+]=[N-])OCC(Cl)(Cl)Cl	-	>100 µM
CCCCOP(=O)(N[C@H](C(=O)OC)C(C)C)OC[C@H]1O[C@@H](n2cc(C)c(=O)[nH]c2=O)C[C@@H]1N=[N+]=[N-]	-	>100 µM
CC[C@H](C)[C@H](NC(=O)[C@@H]1CCCN1P(=O)(OC)C(CC1CCCCC1)NC(=O)[C@@H](CC(N)=O)NC(=O)c1ccc2ccccc2n1)C(=O)NCC(C)C	-	20 µM
CC/C=C\C/C=C\C/C=C\C/C=C\C/C=C\CCCC(=O)O[C@@H]1[C@@H](C)[C@@]2(O)[C@@H](C=C(COC(C)=O)C[C@]3(O)C(=O)C(C)=C[C@@H]23)[C@@H]2C(C)(C)[C@]12OC(C)=O	MTT	54.22 µM
CC(C)=CCC/C(C)=C/CC/C(C)=C/CC/C(C)=C/Cc1cc(O)cc2c1OC(=O)C2	MTT	12.13 µM
CC[C@H](C)[C@H](NC(=O)[C@@H](Cc1ccccc1)NP(=O)(OC)C(Cc1ccccc1)NC(=O)OCc1ccccc1)C(=O)NCC(C)C	-	2 µM
c1ccc(COc2ccccc2)cc1	MTT	198 µg/mL
COc1ccccc1C1CCN(C(=O)c2cc3c([nH]c4ccccc43)c(-c3cccs3)n2)CC1	MTT	>400 µM
COc1ccc(/C=C/C(=O)O[C@@H]2[C@@H](C)[C@@]3(O)[C@@H](C=C(CO)C[C@]4(O)C(=O)C(C)=C[C@@H]34)[C@@H]3C(C)(C)[C@]23OC(C)=O)cc1	MTT	109 µM
Clc1ccccc1OCc1ccccc1	MTT	109 µg/mL
CC(C)C[C@H]1NC(=O)C(Cc2c[nH]c3c(C45C[C@H]6C(=O)N[C@H](Cc7ccccc7)C(=O)N6[C@H]4Nc4ccccc45)cccc23)NC1=O	-	>100 µM
Oc1ccc(C2Nc3ccccc3-n3c2cc2ccccc23)cc1	MTT	81.19 µg/mL
CCC(C)[C@H](NC(=O)[C@@H]1CCCN1[P@](=O)(OC)[C@H](Cc1ccccc1)NC(=O)[C@H](CC(N)=O)NC(=O)OC(C)(C)C)C(=O)NCC(C)C	-	>100 µM
CCOP(=O)(N[C@@H](C)C(=O)OC)OC[C@H]1O[C@@H](n2cc(C)c(=O)[nH]c2=O)C[C@@H]1N=[N+]=[N-]	-	>100 µM
CCCCCCCCC(=O)O[C@@]12[C@H](OC(=O)/C=C/c3ccc(OC)cc3)[C@@H](C)[C@@]3(O)[C@@H](C=C(CO)C[C@]4(O)C(=O)C(C)=C[C@@H]34)[C@@H]1C2(C)C	MTT	52.7 µM
COc1ccc(N2CCN(C(=O)c3cc4c([nH]c5ccccc54)c(-c4cccs4)n3)CC2)cc1	MTT	>400 µM
COc1cc(C2Nc3ccccc3-n3c2cc2ccccc23)ccc1O	MTT	117 µg/mL
O=C(c1cc2c([nH]c3ccccc32)c(-c2cccs2)n1)N1CCC(c2ccc([N+](=O)[O-])cc2)CC1	MTT	>400 µM
CCCCCCCCC(=O)O[C@@H]1[C@@H](C)[C@@]2(O)[C@@H](C=C(CO)C[C@]3(O)C(=O)C(C)=C[C@@H]23)[C@@H]2C(C)(C)[C@]12OC(=O)CCCCCCCC	MTT	107 µM
COc1ccc(COc2ccccc2)cc1	MTT	152 µg/mL

Repeating the final 3 entries:

structure,method,result
O=C(c1cc2c([nH]c3ccccc32)c(-c2cccs2)n1)N1CCC(c2ccc([N+](=O)[O-])cc2)CC1,MTT,>400 µM
CCCCCCCCC(=O)O[C@@H]1[C@@H](C)[C@@]2(O)[C@@H](C=C(CO)C[C@]3(O)C(=O)C(C)=C[C@@H]23)[C@@H]2C(C)(C)[C@]12OC(=O)CCCCCCCC,MTT,107 µM
COc1ccc(COc2ccccc2)cc1,MTT,152 µg/mL